The match of structure and compound is tentative. Some results are limits rather than exact numbers.

Amino acid sequences for entries named in this document (tags omitted). A change or cut given only in a name is not applied to a line headed by its entry. Residues count along the entry.
UniProt P27958, 1027-1657 C1454S limits assumed, stated change not applied: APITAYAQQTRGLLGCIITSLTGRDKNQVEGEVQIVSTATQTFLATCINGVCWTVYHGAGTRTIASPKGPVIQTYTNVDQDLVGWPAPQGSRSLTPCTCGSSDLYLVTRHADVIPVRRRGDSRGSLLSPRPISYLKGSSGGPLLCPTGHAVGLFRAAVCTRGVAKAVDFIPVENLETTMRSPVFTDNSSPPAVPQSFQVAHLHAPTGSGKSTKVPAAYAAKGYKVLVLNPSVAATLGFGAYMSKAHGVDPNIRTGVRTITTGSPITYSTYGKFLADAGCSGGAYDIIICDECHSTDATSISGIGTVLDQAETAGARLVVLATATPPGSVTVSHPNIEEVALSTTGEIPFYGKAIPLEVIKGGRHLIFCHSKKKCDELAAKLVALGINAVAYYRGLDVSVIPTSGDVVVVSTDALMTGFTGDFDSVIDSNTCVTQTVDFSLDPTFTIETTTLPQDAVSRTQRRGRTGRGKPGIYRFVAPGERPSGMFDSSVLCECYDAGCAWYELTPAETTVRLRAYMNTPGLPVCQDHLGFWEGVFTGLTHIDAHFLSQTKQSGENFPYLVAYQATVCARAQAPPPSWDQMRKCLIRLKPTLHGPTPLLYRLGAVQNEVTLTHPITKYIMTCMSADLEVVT

Here are results for one compound from patent US7173004B2, “Macrocyclic isoquinoline peptide inhibitors of hepatitis C virus” (Bristol-Myers Squibb Company, priority 2003, dated 2007).

Experiment [1] concerns HCV replicon (HCV 1b-377-neo replicon cells, Huh7). Put plainly: HCV replicon cell-based FRET assay. The following applies: activity range symbols. The procedure:
HCV Replion assays were utilized in the present invention, and were prepared, conducted and validated as follows:
An HCV replicon whole cell system was established as described by Lohmann V, Korner F, Koch J, Herian U, Theilmann L, Bartenschlager R., Science 285(5424): 110–3 (1999). This system enabled us to evaluate the effects of our HCV Protease compounds on HCV RNA replication. Briefly, using the HCV strain 1B sequence described in the Lohmann paper (Assession number: AJ238799), an HCV cDNA was synthesized by Operon Technologies, Inc. (Alameda, Calif.), and the full-length replicon was then assembled in plasmid pGem9zf(+) (Promega, Madison, Wis.) using standard molecular biology techniques. […]
Huh7 cells, constitutively expressing the HCV replicon, were grown in Dulbecco's Modified Eagle Media (DMEM) containing 10% Fetal calf serum (FCS) and 1 mg/ml G418 (Gibco-BRL). […] After 4 days, cells were first assessed for cytotoxicity using alamar Blue (Trek Diagnotstic Systems) for a CC50 reading. The toxicity of compound (CC50) was determined by adding 1/10th volume of alamar Blue to the media incubating the cells. After 4 hr, the fluorescence signal from each well was read, with an excitation wavelength at 530 nm and an emission wavelength of 580 nm, using the Cytofluor Series 4000 (Perspective Biosystems). […]
A general note: In antiviral work, replicon cells carry a viral genome segment that copies itself.

Experiment [2] has as its target HCV NS3/4A protease complex, BMS strain (genotype 1a) (UniProt P27958, C1454S/C1711G, species not given/STRAIN_BMS). Briefly: Recombinant HCV NS3/4A protease complex FRET peptide assay, BMS strain. The experiment is classed as biochemical. The conditions noted are these: NS3/4A BMS strain; activity range symbols. An excerpt: Recombinant HCV NS3/4A Protease Complex FRET Peptide Assay
The purpose of this in vitro assay was to measure the inhibition of HCV NS3 protease complexes, derived from the BMS strain, H77C strain or J416S strain, as described below, by compounds of the present invention. This assay provides an indication of how effective compounds of the present invention would be in inhibiting HCV proteolytic activity.
Serum from an HCV-infected patient was obtained from Dr. T. Wright, San Francisco Hospital. An engineered full-length cDNA (compliment deoxyribonucleic acid) template of the HCV genome (BMS strain) was constructed from DNA fragments obtained by reverse transcription-PCR (RT-PCR) of serum RNA (ribonucleic acid) and using primers selected on the basis of homology between other genotype 1a strains. From the determination of the entire genome sequence, a genotype 1a was assigned to the HCV isolate according to the classification of Simmonds et al. (See P Simmonds, K A Rose, S Graham, S W Chan, F McOmish, B C Dow, E A Follett, P L Yap and H Marsden, J. Clin. Microbiol., 31(6), 1493–1503 (1993)). […]

By EC50 is commonly meant the midpoint of the concentration-response curve. Higher therefore signals a need for much substance. The term IC50 denotes the midpoint of a concentration-inhibition curve. `CCC1(S(=O)(=O)NC(=O)[C@@]23C[C@H]2/C=C\CCCCC[C@H](NC(=O)OC(C)(C)C)C(=O)N2C[C@H](Oc4nccc5ccccc45)C[C@H]2C(=O)N3)CC1`: the EC50 in experiment [1] was less than 50 nM. Moreover, the IC50 in experiment [2] is less than 50 nM.
